Compound potency records, mixed from different reports. Data source: NIAID ChemDB in PubChem.

All rows: tests in culture; agent: HIV-1; read by: cytopathic effect; read-out: EC50

Lines come from different laboratories, so protocols vary.

| SMILES | mutations | strain | setting | cell line | result |
|---|---|---|---|---|---|
| Nc1ccn([C@@H]2C[C@H](CO)CS2)c(=O)n1 | - | - | - | MT-4 | >100 µM |
| COc1ccc2c(c1)N(C(=O)OC(C)C)[C@@H](CSC)C(=S)N2 | RT-V106A P225H | Recombinant | - | MT-4 | 0.14 µM |
| Nc1ncnc2c1ncn2[C@@H]1C[C@H](CO)CS1 | - | - | - | MT-4 | >19.15 µM |
| Fc1cccc(F)c1[C@@H]1SCc2nc3ccccc3n21 | - | ADP/141 | - | MT-4 | 1.63 µM |
| Nc1ncnc2c1ncn2[C@H]1CC[C@@H](CO)O1 | - | IIIB | - | MT-4 | 10 µM |
| CCN1c2ncccc2N(C)C(=S)c2oc3cccnc3c21 | - | NDK | - | MT-4 | 0.2 µM |
| Cc1cn(C[C@@H]2C[C@@]2(CO)c2ccccc2)c(=O)[nH]c1=O | - | - | - | MT-4 | >100 µg/mL |
| Fc1cccc(F)c1C1SCc2nc3ccccc3n21 | - | RF | - | MT-4 | 0.55 µM |
| CCN(CC)c1nc(N)nc2c1ncn2[C@H]1C[C@H](N=[N+]=[N-])[C@@H](CO)O1 | - | IIIB | - | MT-4 | >200 µM |
| C=C(C)OC(=O)N1c2cc(Cl)ccc2NC(=S)C1(C)C | RT-P225H | Recombinant | - | MT-4 | 0.008 µM |
| Cc1cn([C@H]2C[C@H](N=[N+]=[N-])[C@@H](COP(=O)(OCc3ccccc3)OCc3ccccc3)O2)c(=O)[nH]c1=O | - | - | - | MT-4 | 0.98 µM |
| CC[C@H]1C(=O)Nc2ccc(F)cc2N1C(=O)OC(C)C | RT-K103N | NNRTI-resistant | - | CEM | 0.14 µM |
| Cc1cn([C@H]2C=C[C@@H](COP(=O)(O)OCc3ccccc3)O2)c(=O)[nH]c1=O | - | - | - | CEM + CEM-SS | 0.016 µM |
| Cc1cn([C@]2(c3ccccc3)C[C@@H]2COCP(=O)(OC(C)C)OC(C)C)c(=O)[nH]c1=O | - | - | - | MT-4 | >100 µM |
| CC(C)Nc1cccnc1N1CCN(C(=O)c2cc3cc(NS(C)(=O)=O)ccc3[nH]2)CC1 | RT-L100I | A-0 (RT-L100I) | - | CEM | 0.12 µg/mL |
| Nc1ncnc2c1ncn2C=C=CCO | - | IIIB | - | MT-4 | 5.8 µM |
| Nc1nc(N)c2ncn(CC(OCCF)OCP(=O)(O)O)c2n1 | - | - | - | CEM | 100 µg/mL |
| CC(C)=CCOc1cc(NC(=S)c2ccoc2C)ccc1Cl | RT-V108I M184I | D-3 (RT-V108I M184I) | - | CEM | 0.0041 µg/mL |
| Fc1cccc(F)c1CCNC(=S)Nc1ccc(Br)cn1 | - | IIIB | - | MT-4 | 0.005 µM |
| CC(C)=CCN1Cc2cc(Cl)cc3[nH]c(=O)n(c23)C[C@@H]1C | RT-V106A | Recombinant | - | MT-4 | 1.2 µM |
| Fc1cccc(F)c1[C@H]1SCc2nc3ccccc3n21 | - | HE | - | MT-4 | 0.31 µM |
| CCCCCCCSc1nsc(NC(=O)Nc2ccccc2)n1 | - | L1 | - | MT-4 | 3.7 µM |
| Cc1cn([C@@H]2C[C@H](CO)CS2)c(=O)[nH]c1=O | - | - | - | MT-4 | >100 µM |
| Cc1cn([C@H]2C=C[C@@H](COP(=O)(OCc3ccccc3)OCc3ccccc3)O2)c(=O)[nH]c1=O | - | - | - | MT-4 | >100 µM |
| CNC(=O)[C@@H](NC(=O)[C@H](OCc1ccc(-c2ccccn2)cc1)[C@H](O)[C@@H](O)[C@@H](OCc1ccc(-c2ccccn2)cc1)C(=O)N[C@H](C(=O)NC)C(C)C)C(C)C | - | - | - | MT-4 | 0.64 µM |
| CCOCn1c(Cc2ccccc2)c(C(C)C)c(=O)[nH]c1=O | - | IIIB | - | C8166 | 0.003 µg/mL |
| Nc1ncnc2c1ncn2C[C@H]1C[C@@]1(CO)c1ccccc1 | - | - | - | MT-4 | >100 µg/mL |
| Cc1cn([C@H]2C[C@H](N=[N+]=[N-])[C@@H](CO)O2)c(=O)[nH]c1=O | - | IIIB | - | ATH8 | <0.25 µg/mL |
| CNC(=O)[C@@H](NC(=O)[C@H](OCc1ccccc1)[C@H](O)[C@@H](O)[C@@H](OCc1ccccc1)C(=O)N[C@H]1c2ccccc2C[C@H]1O)C(C)C | - | - | - | MT-4 | 0.12 µM |
| Nc1ccn([C@H]2CC[C@@H](CO)O2)c(=O)n1 | - | IIIB | - | ATH8 | 0.2 µM |
| CC(C)=CCN1Cc2cc(Cl)cc3[nH]c(=S)n(c23)C[C@@H]1C | RT-E138K | IIIB | - | CEM | 0.3 µg/mL |
| CCc1csc(NC(=S)NCCc2ccccc2)n1 | - | IIIB | - | MT-4 | 0.24 µM |
| O=c1[nH]c2ccc(Cl)cc2n1Cc1c(F)cccc1F | RT-Y181C | - | - | CEM | >20 µM |
| CNC(=O)[C@@H](NC(=O)[C@@H](C[C@@H](O)[C@@H](OCc1ccccc1)C(=O)N[C@H](C(=O)NC)C(C)C)OCc1ccccc1)C(C)C | - | - | - | MT-4 | 1.08 µM |
| CC(C)=CCOc1cc(NC(=S)c2ccoc2C)ccc1Cl | RT-P225H | Recombinant | - | MT-4 | 0.015 µM |
| Cc1cn([C@H]2C[C@H](N=[N+]=[N-])[C@@H](CO)O2)c(=O)[nH]c1=O | RT A62V 69SS K70R E79K V118I M184V E203K L210W T215Y | NL4-3 | - | MT-4 | >7.5 µM |
| Cc1cn([C@@H]2O[C@H](CO[Si](C)(C)C(C)(C)C)C3(OS(=O)(=O)C=C3N)[C@H]2O[Si](C)(C)C(C)(C)C)c(=O)n(C)c1=O | - | IIIB | - | MT-4 | 0.06 µM |
| CC(=O)SCCOP(=O)(OCCSC(C)=O)OC[C@@H]1CC[C@H](n2cnc3c(N)ncnc32)O1 | - | IIIB | - | CEM + CEM-SS | 0.00056 µM |
| Fc1cccc(F)c1CCNC(=S)Nc1nccs1 | - | IIIB | - | MT-4 | 0.04 µM |
| Nc1ncnc2c1ncn2[C@]1(c2ccccc2)C[C@@H]1COCP(=O)(O)O | - | - | - | MT-4 | >100 µM |
| Nc1ccn([C@H]2C[C@H](CO)CS2)c(=O)n1 | - | - | - | MT-4 | >100 µM |
| CCc1csc(NC(=S)NCCc2ccccn2)n1 | - | IIIB | - | MT-4 | 0.34 µM |
| Clc1nc(Cl)c2c(n1)Oc1nc(Cl)nc(Cl)c1C2c1ccccc1 | - | L1 | - | MT-4 | 17.5 µM |
| Cc1cn([C@H]2C[C@H](N=[N+]=[N-])[C@@H](CO)O2)c(=O)[nH]c1=O | - | - | - | MT-4 | >0.0004 µM |
| Cc1ccnc2c1NC(=O)c1cccnc1N2C1CC1 | - | IIIB | - | MT-4 | 0.07 µM |
| CC(C)=CCOc1cc(NC(=S)c2ccsc2C)ccc1Cl | - | HE | - | MOLT | 0.005 µg/mL |
| O=c1ccn([C@@H]2CC(CO)(CO)CS2)c(=O)[nH]1 | - | - | - | MT-4 | >100 µg/mL |
| CCN1c2cc(C)c(C)cc2N(C)S(=O)(=O)c2cccnc21 | - | RF | - | MT-4 | 0.3 µM |
| O=c1[nH]cnc2c1ncn2[C@H]1CC[C@@H](CO)O1 | RT-M41L T215Y | AZT-resistant (RT M41L T215Y) | - | MT-4 | 0.25 µM |
| Cc1ccc(NC(=S)NCCc2c(F)cccc2F)nc1 | - | IIIB | - | MT-4 | 0.33 µM |
| CCCOc1nc(N)nc2c1ncn2[C@H]1C[C@H](N=[N+]=[N-])[C@@H](CO)O1 | - | IIIB | - | MT-4 | 9 µM |
| Cc1occc1C(=S)Nc1ccc(Cl)c(/C=N/OC(C)(C)C)c1 | RT-E138K | IIIB | - | CEM | 0.05 µg/mL |
| Nc1ncnc2c1ncn2[C@@H]1CC(CO)(CO)CS1 | - | - | - | MT-4 | >100 µg/mL |
| Cc1cn([C@H]2C[C@H](N=[N+]=[N-])[C@@H](CO)O2)c(=O)[nH]c1=O | - | LAV-1 | 14 d | CEM(TK-) + CEM TK- | >100 µM |
| Cc1cn(C[C@H]2C[C@@]2(CO)c2ccccc2)c(=O)[nH]c1=O | - | - | - | MT-4 | >100 µg/mL |
| COC(=O)[C@@H](NC(=O)Cc1ccccc1)[C@@H]1N[C@@H](C(=O)NCCNC(=O)[C@@H]2N[C@@H]([C@H](NC(=O)Cc3ccccc3)C(=O)OC)SC2(C)C)C(C)(C)S1 | - | RF | - | MT-4 | >100 µM |
| Nc1ccn([C@]2(c3ccccc3)C[C@@H]2CO)c(=O)n1 | - | - | - | MT-4 | >100 µM |
| Cc1cn([C@H]2C=C[C@@H](CO)O2)c(=O)[nH]c1=O | - | - | - | CEM + CEM TK- | 14 µM |
| Cc1cn([C@]2(c3ccccc3)C[C@@H]2COCP(=O)(O)O)c(=O)[nH]c1=O | - | - | - | MT-4 | >100 µM |
| C/C(=N\O)c1cccc(CN2[C@H](COc3ccccc3)[C@H](O)[C@@H](O)[C@@H](COc3ccccc3)N(Cc3cccc(/C(C)=N/O)c3)S2(=O)=O)c1 | - | - | - | MT-4 | 2.9 µM |
| Cc1ccnc2c1NC(=O)c1cccnc1N2C1CC1 | RT-L100V K103R/K Y188H | B-1 (RT L100V K103R/K Y188H) | - | CEM | 0.05 µg/mL |
| Nc1nc(=O)n([C@@H]2CS[C@H](CO)O2)cc1F | - | LAV-1 | 14 d | CEM | 1.01 µM |
| CC1(C)S[C@@H]2[C@H](NC(=O)Cc3ccccc3)C(=O)N2[C@H]1C(=O)NCCNC(=O)[C@@H]1N2C(=O)[C@@H](NC(=O)Cc3ccccc3)[C@H]2SC1(C)C | - | RF | - | MT-4 | >100 µM |
| [N-]=[N+]=N[C@H]1C[C@H](n2cnc3c(Oc4ccccc4)nc(N)nc32)O[C@@H]1CO | - | IIIB | - | MT-4 | 43 µM |
| CC(C)Nc1cccnc1N1CCN(C(=O)c2cc3cc(NS(C)(=O)=O)ccc3[nH]2)CC1 | - | IIIB WT | - | CEM | 0.016 µM |
| Cc1csc(NC(=S)NCCc2c(F)cccc2F)n1 | - | IIIB | - | MT-4 | 0.025 µM |
| CCN1c2ncccc2N(C)C(=O)c2c1c1ccccc1n2CC | - | IIIB | - | C8166 | 0.04 µM |
| CCc1csc(NC(=S)NCCc2c(F)cccc2F)n1 | - | IIIB | - | MT-4 | 0.03 µM |
| [N-]=[N+]=N[C@H]1C[C@H](n2cnc3c(OC4CCC4)nc(N)nc32)O[C@@H]1CO | - | IIIB | - | MT-4 | 5 µM |
| COc1nc(=O)[nH]c2c1C(c1ccc([N+](=O)[O-])cc1)c1c(OC)nc(=O)[nH]c1O2 | - | L1 | - | MT-4 | >313 µM |

Blank or dashed fields: not listed here. ECn: concentration that inhibits the pathogen or its effect by n%.